The text below walks through data of PMC6153414 (Protein Science : A Publication of the Protein Society, 2018).

The test system of the data set is Nc1ncnc2c1ncn2[C@@H]1O[C@H](COP(=O)(O)OP(=O)(O)OP(=O)(O)O)[C@@H](O)[C@H]1O. Kind of data set: purified protein.

By Km is commonly meant the concentration of substrate that gives half-maximal velocity. As to DotBL (Legionella pneumophila), the Km amounted to 990 ± 300 µM.
